Measured values from several laboratories, pooled; numbers as filed in NIAID ChemDB.

All rows: enzyme or target tests; organism: Hepatitis C virus; protein: HCV NS3 protease; measure: Ki

Neighbouring rows are from separate reports.

SMILES,value
CC[C@H](NC(C)=O)C(=O)N[C@@H](CCC(=O)O)C(=O)N[C@H](C(=O)N[C@@H](CCC(=O)O)C(=O)N[C@@H](CC1CCCCC1)C(=O)N[C@H](C=O)CC(F)F)C(c1ccccc1)c1ccccc1,0.0005 µM
C[C@@H](O)[C@H](NC(=O)[C@H](CO)NC(=O)[C@H](CS)NC(=O)[C@@H](N)CC(=O)O)C(=O)N1CCC[C@H]1C(=O)N[C@@H](CS)C(=O)O,180 µM
CC(C)C[C@H](NC(=O)[C@@H](NC(=O)[C@@H](NC(=O)[C@H](CC(=O)O)NC(=O)[C@@H](N)CCC(=O)O)C(C)C)C(C)C)C(=O)N[C@@H](CS)C(=O)N1Cc2ccccc2C[C@H]1C(=O)O,120 µM
CCCC(NC(=O)[C@H](CC1CCCCC1)NC(=O)[C@@H](NC(=O)[C@H](CC(C)C)NC(=O)[C@@H](CCC(=O)O)NC(=O)[C@H](CCC(=O)O)NC(=O)CCC(=O)O)[C@@H](C)CC)C(=O)C(F)(F)C(F)(F)F,0.12 µM
CC(=O)N[C@@H](CC(=O)O)C(=O)N[C@@H](CCC(=O)O)C(=O)N[C@H](C(=O)N[C@@H](CCC(=O)O)C(=O)N[C@@H](CC1CCCCC1)C(=O)NC(CC(F)F)C(=O)C(=O)O)C(c1ccccc1)c1ccccc1,0.004 µM
CSCC[C@H](NC(=O)[C@H](CCC(=O)O)NC(=O)[C@@H](N)CC(=O)O)C(=O)N[C@@H](CCC(=O)O)C(=O)N[C@@H](CCC(=O)O)C(=O)N[C@@H](CS)C(=O)O,0.6 µM
C=CC[C@H](NC(=O)[C@H](CC1CCCCC1)NC(=O)[C@@H](NC(=O)[C@H](CC(C)C)NC(=O)[C@@H](CCC(=O)O)NC(=O)[C@H](CCC(=O)O)NC(=O)CCC(=O)O)[C@@H](C)CC)C(=O)O,0.12 µM
CSCC[C@H](NC(=O)[C@H](CCC(=O)O)NC(=O)[C@@H](N)CC(=O)O)C(=O)N[C@@H](CCC(=O)O)C(=O)N[C@@H](CCC(=O)O)C(=O)N[C@@H](CS)C(=O)O,0.6 µM
CC[C@H](C)[C@H](NC(=O)[C@H](CC(C)C)NC(=O)[C@@H](CCC(=O)O)NC(=O)[C@H](CCC(=O)O)NC(=O)CCC(=O)O)C(=O)N[C@@H](CC1CCCCC1)C(=O)NC1(c2nn[nH]n2)CC1,0.19 µM
CCC(NC(=O)[C@H](CC(C)C)NC(=O)[C@@H](NC(=O)[C@H](Cc1ccccc1C)NC(=O)[C@H](NC(=O)[C@@H](NC(=O)OCc1ccccc1)C(=O)O)C(C)C)C(C)(C)C)B(O)O,0.08 µM
Cn1c(C(F)(F)c2nc3ccc(C(=O)NC(CP(=O)(O)O)C(=O)O)cc3[nH]2)nc2ccc(C(=O)NC(CP(=O)(O)O)C(=O)NC(CP(=O)(O)O)C(=O)O)cc21,0.027 µM
CC[C@H](C)[C@H](NC(=O)[C@H](CC(C)C)NC(=O)[C@@H](CCC(=O)O)NC(=O)CCC(=O)O)C(=O)N[C@@H](CC1CCCCC1)C(=O)NC1(c2nn[nH]n2)CC1,10.2 µM
CC(=O)N[C@@H](C(=O)O)C(=O)N[C@@H](CCC(=O)O)C(=O)N[C@H](C(=O)N[C@@H](CCC(=O)O)C(=O)N[C@@H](CC1CCCCC1)C(=O)N[C@@H](CS)C(=O)O)C(c1ccccc1)c1ccccc1,0.04 µM
CCC[C@@H](NC(=O)[C@@H]1C[C@@H](OCc2ccc3ccccc3c2)CN1C(=O)[C@@H](NC(=O)[C@@H](NC(=O)[C@@H](CCC(=O)O)NC(=O)[C@H](CC(=O)O)NC(C)=O)C1CCCCC1)C(C)C)C(=O)O,0.003 µM
CC[C@H](C)[C@H](NC(=O)[C@H](CC(C)C)NC(=O)[C@@H](CCC(=O)O)NC(=O)CCC(=O)O)C(=O)N[C@@H](CC1CCCCC1)C(=O)N[C@@H](CS)C(=O)O,0.12 µM
CC[C@H](C)[C@H](NC(=O)OCc1ccccc1)C(=O)N[C@@H](CC(C)C)C(=O)N[C@@H](CC(F)F)C(=O)C(=O)O,17 µM
CC[C@H](NC(C)=O)C(=O)N[C@@H](CCC(=O)O)C(=O)N[C@H](C(=O)N[C@@H](CCC(=O)O)C(=O)N[C@@H](CC1CCCCC1)C(=O)N[C@@H](CC(F)F)C(=O)C(=O)O)C(c1ccccc1)c1ccccc1,0.00001 µM
CC[C@H](C)[C@H](NC(=O)[C@H](CC(C)C)NC(=O)[C@@H](CCC(=O)O)NC(=O)[C@H](CCC(=O)O)NC(=O)CCC(=O)O)C(=O)N[C@@H](CC1CCCCC1)C(=O)NC1(C(=O)NS(=O)(=O)c2ccccc2)CC1,0.0038 µM
CC(=O)N[C@@H](C(=O)O)C(=O)N[C@@H](CCC(=O)O)C(=O)N[C@H](C(=O)N[C@@H](CCC(=O)O)C(=O)N[C@@H](CC1CCCCC1)C(=O)N[C@@H](CC(F)F)C(=O)O)C(c1ccccc1)c1ccccc1,0.021 µM
CC[C@H](C)[C@H](NC(=O)[C@H](CC(C)C)NC(=O)[C@@H](CCC(=O)O)NC(=O)CCC(=O)O)C(=O)N[C@@H](CC1CCCCC1)C(=O)NC1(C(=O)c2nn[nH]n2)CC1,13 µM
CC(C)C[C@H](NC(=O)[C@@H](N)CC(=O)O)C(=O)N[C@@H](CCC(=O)O)C(=O)N[C@H](C(=O)N[C@H](C(=O)N[C@H](C(=O)O)[C@@H](C)O)C(C)C)C(C)C,>500 µM

For reference, 2 entries again:

SMILES | value
CSCC[C@H](NC(=O)[C@H](CCC(=O)O)NC(=O)[C@@H](N)CC(=O)O)C(=O)N[C@@H](CCC(=O)O)C(=O)N[C@@H](CCC(=O)O)C(=O)N[C@@H](CS)C(=O)O | 0.6 µM
CC[C@H](C)[C@H](NC(=O)[C@H](CC(C)C)NC(=O)[C@@H](CCC(=O)O)NC(=O)[C@H](CCC(=O)O)NC(=O)CCC(=O)O)C(=O)N[C@@H](CC1CCCCC1)C(=O)NC1(C(=O)NS(=O)(=O)c2ccccc2)CC1 | 0.0038 µM